Measured values from several laboratories, pooled; numbers as filed in NIAID ChemDB.

All rows: growth or infection tests; species: Mycobacterium avium complex; measure: MIC

Conditions beyond the fields shown may differ between rows. a–b is a range or a potency band.

smiles,strain,result
O=C1c2cc(Cl)ccc2-n2c1nc1cc(N3CCCCC3)ccc1c2=O,19075,0.5 µg/mL
C/C(=N\NC(=O)c1ccncc1)c1cccc(Br)c1,12592 PI,>20 µg/mL
O[C@H](c1cc2ccc(C(F)(F)F)cc2c2cc(C(F)(F)F)ccc12)[C@H]1CCCCN1,101 (clarithromycin-resistant),4 µg/mL
COc1cc(OC)cc(N(C)Cc2cnc3nc(N)nc(N)c3c2C)c1,NJ-168 serovar 4/6,≤0.128 µg/mL
C/C(=N\NC(=O)c1ccncc1)c1cccc(F)c1,12592 PI,>1 µg/mL
O[C@@H](c1cc2ccc(C(F)(F)F)cc2c2cc(C(F)(F)F)ccc12)[C@@H]1CCCCN1,5 clinical isolates,4 µg/mL
CCCCCCCCOC1O[C@@H](C(O)COC2O[C@@H](C(O)CO)[C@H](O)[C@H]2O)[C@H](O)[C@H]1O,NJ211,>128 µg/mL
CCCCS/C(N)=N\N=C\c1ccnnc1,ATCC 19421,12.5 µg/mL
CC1(C)N=C(N)N=C(N)N1OCCCOc1cc(Cl)c(Cl)cc1Cl,ATCC35801,2 µg/mL
CC1CN(c2cc3c(cc2F)c(=O)c(C(=O)O)cn3-c2ccc(F)cc2F)CCN1,LV-2,16 µg/mL
C/C(=N\NC(N)=S)c1cccnc1,116,16 µg/mL
NNC(=O)c1ccncc1,13022,0.63–1.6 µg/mL
CCCO/N=C1\[C@H](C)CC(C)(O)[C@H](O[C@@H]2O[C@H](C)C[C@H](N(C)C)[C@H]2O)[C@@H](C)[C@H](O[C@H]2C[C@@](C)(OC)[C@@H](OC(C)=O)[C@H](C)O2)[C@@H](C)C(=O)O[C@H](CC)[C@@](C)(O)[C@H](O)[C@H]1C,20039 (clarithromycin-susceptible),>50 µg/mL
CO/C(=N\N=C\c1cccc(F)c1)c1ccncc1,12592 PI,>10 µg/mL
COc1ccc(OC)c(NCc2cnc3nc(N)nc(N)c3c2C)c1,NJ-168 serovar 4/6,≤0.128 µg/mL
CCN=c1cc2n(-c3ccc(Cl)cc3)c3ccccc3nc-2cc1Nc1ccc(Cl)cc1,1625,0.25 µg/mL
COc1ccc(C(F)(F)F)cc1NCc1cnc2nc(N)nc(N)c2c1C,NJ-168 serovar 1,≤0.128 µg/mL
O=C1c2cc(Br)ccc2-n2c1nc1ccncc1c2=O,101,<0.2 µg/mL
CO/C(=N\N=C\c1ccc(Cl)cc1)c1ccncc1,12592 PI,>5 µg/mL
CC[C@H]1OC(=O)[C@H](C)[C@@H](O[C@H]2C[C@@](C)(OC)[C@@H](O)[C@H](C)O2)[C@H](C)[C@@H](O[C@@H]2O[C@H](C)C[C@H](N(C)C)[C@H]2O)[C@](C)(OC)C[C@@H](C)C(=O)[C@H](C)[C@@H](O)[C@]1(C)O,D-3,4 µg/mL
CCCCCCCCO[C@@H]1O[C@@H](C(CO[C@@H]2O[C@@H](C(O)CO)[C@H](O)[C@H]2O)OC)[C@H](OC)[C@H]1OC,NJ3404,>128 µg/mL
O=C1c2ccccc2-n2c1nc1ccc(F)cc1c2=O,19075,1 µg/mL
CCCCCCCCO[C@H]1OC([C@@H](COC)O[C@H]2O[C@H]([C@@H](O)CO)[C@@H](O)[C@@H]2O)[C@@H](OC)[C@@H]1OC,NJ211,>12.8 µg/mL
CCS/C(N)=N\N=C\c1cccnc1,ATCC 19421,>100 µg/mL
CC[C@H]1OC(=O)[C@H](C)[C@@H](O[C@H]2C[C@@](C)(OC)[C@@H](O)[C@H](C)O2)[C@H](C)[C@@H](O[C@@H]2O[C@H](C)C[C@H](N(C)C)[C@H]2O)[C@](C)(O)C[C@@H](C)CN(C)[C@H](C)[C@@H](O)[C@]1(C)O,E,8 µg/mL
CC(C)N=c1cc2n(-c3ccc(Cl)cc3)c3ccccc3nc-2cc1Nc1ccc(Cl)cc1,101,0.25 µg/mL
CO/C(=N\N=C\c1ccc(OC)cc1OC)c1ccncc1,12592 PI,>5 µg/mL
CC[C@H]1OC(=O)[C@H](C)[C@@H](O[C@H]2C[C@@](C)(OC)[C@@H](OC(C)=O)[C@H](C)O2)[C@H](C)[C@@H](O[C@@H]2O[C@H](C)C[C@H](N(C)C)[C@H]2OC(=O)NNCc2ccccc2OC)C(C)(O)C[C@@H](C)/C(=N\OCCCC2CCCCC2)[C@H](C)[C@@H](O)[C@]1(C)O,20039 (clarithromycin-susceptible),0.39 µg/mL
CCCCCCCCO[C@@H]1O[C@H]([C@@H](COC)O[C@H]2O[C@H](COC(=O)c3ccccc3)[C@@H](OC(=O)c3ccccc3)[C@@H]2OC(=O)c2ccccc2)[C@H](OC)[C@H]1OC,NJ3404,>128 µg/mL
C/C(=N\NC(=O)c1ccncc1)c1ccc(Cl)c(Cl)c1,12592 PI,>10 µg/mL
CCCCN(CCCC)C[C@H](O)c1cc2c(Cl)cc(Cl)cc2c2cc(C(F)(F)F)ccc12,5 clinical isolates,4–8 µg/mL
CC1(C)N=C(N)N=C(N)N1OCCCOc1cc(Cl)c(Cl)cc1Cl,DW22,4 µg/mL
CC[C@H]1OC(=O)[C@H](C)[C@@H](O[C@H]2C[C@@](C)(OC)[C@@H](OC(C)=O)[C@H](C)O2)[C@H](C)[C@@H](O[C@@H]2O[C@H](C)C[C@H](N(C)C)[C@H]2O)C(C)(O)C[C@@H](C)/C(=N\OCCCC2CCCCC2)[C@H](C)[C@@H](O)[C@]1(C)O,20045,3.13 µg/mL
CC[C@H]1OC(=O)[C@H](C)[C@@H](O[C@H]2C[C@@](C)(OC)[C@@H](O)[C@H](C)O2)[C@H](C)[C@@H](O[C@@H]2O[C@H](C)C[C@H](N(C)C)[C@H]2O)[C@](C)(OC)C[C@@H](C)C(=O)[C@H](C)[C@@H](O)[C@]1(C)O,905,8 µg/mL
CC[C@H]1OC(=O)[C@H](C)[C@@H](O[C@H]2C[C@@](C)(OC)[C@@H](O)[C@H](C)O2)[C@H](C)[C@@H](O[C@@H]2O[C@H](C)C[C@H](N(C)C)[C@H]2O)[C@](C)(OC)C[C@@H](C)C(=O)[C@H](C)[C@@H](O)[C@]1(C)O,20096 (clarithromycin-resistant),>50 µg/mL
CC(=O)OCCCC/C=C/c1ccc2nc3n(c(=O)c2c1)-c1ccc(Cl)cc1C3=O,19075,0.5 µg/mL
CN[C@@H]1[C@@H](O)C(O[C@@H]2[C@@H](O)[C@H](OC3O[C@H](CN)[C@@H](O)[C@H](O)[C@H]3O)[C@@H](N)C[C@H]2NC(=O)[C@@H](O)CN)OC[C@]1(C)O,J11,50 µg/mL
CCc1nc(N)nc(N)c1-c1ccc(Cl)cc1,DW21,32 µg/mL
CCCCN(CCCC)C[C@@H](O)c1cc2c(Cl)cc(Cl)cc2c2cc(C(F)(F)F)ccc12,101 (clarithromycin-resistant),8 µg/mL
Cc1cccc2c(=O)n3c(nc12)C(=O)c1ccccc1-3,19075,5 µg/mL
CCO/N=C1\[C@H](C)CC(C)(O)[C@H](O[C@@H]2O[C@H](C)C[C@H](N(C)C)[C@H]2O)[C@@H](C)[C@H](OC2C[C@@](C)(OC)[C@@H](O)[C@H](C)O2)[C@@H](C)C(=O)O[C@H](CC)[C@@](C)(O)[C@H](O)[C@H]1C,20039 (clarithromycin-susceptible),3.13 µg/mL
CO/C(=N\N=C\c1ccc(C(F)(F)F)cc1)c1ccncc1,12592 PI,>1 µg/mL
CCCCCCCCO[C@@H]1O[C@H]([C@@H](COC)O[C@H]2O[C@H](CO)[C@@H](O)[C@@H]2O)[C@H](OC)[C@H]1OC,NJ3404,>128 µg/mL
CCCCCCCCO[C@@H]1O[C@@H](C(CO[C@@H]2O[C@@H]([C@H](O)CO)[C@H](O)[C@H]2O)OCc2ccccc2)[C@H](OCc2ccccc2)[C@H]1OCc1ccccc1,NJ3404,>128 µg/mL
CO/C(=N\N=C\c1ccccc1)c1ccncc1,12592 PI,>20 µg/mL
O=C1c2cc(I)ccc2-n2c1nc1ncccc1c2=O,101,5 µg/mL
COc1ccc(C)c(NCc2cnc3nc(N)nc(N)c3c2C)c1,NJ-168 serovar 4,≤0.128 µg/mL
CC[C@H]1OC(=O)[C@H](C)[C@@H](O[C@H]2C[C@@](C)(OC)[C@@H](O)[C@H](C)O2)[C@H](C)[C@@H](O[C@@H]2O[C@H](C)C[C@H](N(C)C)[C@H]2O)[C@](C)(O)C[C@@H](C)CN(C)[C@H](C)[C@@H](O)[C@]1(C)O,MO-1,32 µg/mL

Again, the opening 2 rows:

{"smiles": "O=C1c2cc(Cl)ccc2-n2c1nc1cc(N3CCCCC3)ccc1c2=O", "strain": "19075", "result": "0.5 µg/mL"}
{"smiles": "C/C(=N\\NC(=O)c1ccncc1)c1cccc(Br)c1", "strain": "12592 PI", "result": ">20 µg/mL"}